Assay results taken from ChEMBL document CHEMBL1926667, “The synthesis of 2-nitroaryl-1,2,3,4-tetrahydroisoquinolines, nitro-substituted 5,6-dihydrobenzimidazo[2,1-a]isoquinoline N-oxides and related heterocycles as potential bioreducible substrates for the enzymes NAD(P)H: quinone oxidoreductase 1 and E. coli nitroreductase” (Bioorg Med Chem Lett, 2011).

Columns and labels:
[1] = test system: Escherichia coli; assay: Activation of Escherichia coli nitroreductase assessed as specific activity per mg of protein at 100 uM by measuring decrease in substrate concentration by HPLC analysis
Procedure, shortened: (§1)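 Reduction by human NQO1 or E. coli NR followed by the disappearance of substrate over time; specific activity is the rate of substrate reduction at 37 °C. Relative activity is the specific activity compared with CB-1954.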

[2] = test system: Escherichia coli; assay: Activation of Escherichia coli nitroreductase assessed as decrease in substrate concentration at 100 uM by HPLC analysis relative to CB-1954; procedure, shortened: as §1
[3] = test system: Escherichia coli; assay: Activation of Escherichia coli nitroreductase assessed as specific activity per mg of protein at 100 uM by measuring decrease in NADH concentration
Procedure, shortened: (§2)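 Human NQO1 or E. coli NR reduction followed by the fall in NADH concentration over time; specific activity is the rate of reduction per enzyme at 37 °C. Relative values are the specific activity compared with CB-1954.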

[4] = test system: Escherichia coli; assay: Activation of Escherichia coli nitroreductase assessed as decrease in NADH concentration at 100 uM relative to CB-1954; procedure, shortened: as §2

| Compound | Activity [1] [µmol/min] | fold change (FC) [2] | Activity [3] [µmol/min] | fold change (FC) [4] |
| --- | --- | --- | --- | --- |
| NC(=O)c1cc(N2CCc3c(cccc3[N+](=O)[O-])C2)c([N+](=O)[O-])cc1[N+](=O)[O-] | 1.11 | 0.6 |  |  |
| O=C(O)c1cc([N+](=O)[O-])cc([N+](=O)[O-])c1N1CCc2ccc([N+](=O)[O-])cc2C1 |  |  | 14.8 | 7.4 |
| NC(=O)c1cc(N2CCc3ccc([N+](=O)[O-])cc3C2)c([N+](=O)[O-])cc1[N+](=O)[O-] | 1.67 | 0.9 |  |  |
| O=C(O)c1cc([N+](=O)[O-])cc([N+](=O)[O-])c1N1CCc2c(cccc2[N+](=O)[O-])C1 |  |  | 9.85 | 5.3 |
| O=[N+]([O-])c1ccc(N2CCc3c(cccc3[N+](=O)[O-])C2)c([N+](=O)[O-])c1 | 0.44 | 0.2 |  |  |
